The source of these data is publication PMC8121815 (Nature Communications, 2021).

By UniProt entry, the sequences of proteins in these tests, tags left out. Residues count along the entry.
UniProt O94826, 106-608 H583Q limits assumed: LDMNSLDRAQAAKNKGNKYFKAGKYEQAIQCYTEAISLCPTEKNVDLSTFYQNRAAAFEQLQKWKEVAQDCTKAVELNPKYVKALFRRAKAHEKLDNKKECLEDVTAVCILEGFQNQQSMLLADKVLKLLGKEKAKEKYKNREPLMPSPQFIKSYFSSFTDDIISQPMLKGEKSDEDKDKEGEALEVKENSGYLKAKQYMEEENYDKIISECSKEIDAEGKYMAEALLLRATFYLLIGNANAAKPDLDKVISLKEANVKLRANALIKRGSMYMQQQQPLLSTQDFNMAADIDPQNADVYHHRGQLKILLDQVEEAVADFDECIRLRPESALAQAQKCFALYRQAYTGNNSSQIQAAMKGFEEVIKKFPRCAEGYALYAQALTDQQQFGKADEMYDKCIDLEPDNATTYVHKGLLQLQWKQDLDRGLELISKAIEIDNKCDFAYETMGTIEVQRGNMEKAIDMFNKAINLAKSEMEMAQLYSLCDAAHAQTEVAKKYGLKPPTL

In one assay the test system is hTOM70 mutant E549I. Description: ITC, hTOM70 mutant E549I.
For another assay, the target named is hTOM70 mutant H583Q (Homo sapiens, UniProt O94826, H583Q). The assay can be described thus: ITC, hTOM70 mutant H583Q.

For the compound `CC[C@H](C)[C@H](N)C(=O)N[C@H](C(=O)N[C@@H](CC(C)C)C(=O)N[C@@H](CCCNC(=N)N)C(=O)N[C@@H](CC(C)C)C(=O)NCC(=O)N[C@@H](CO)C(=O)N1CCC[C@H]1C(=O)N[C@@H](CC(C)C)C(=O)N[C@@H](CO)C(=O)N[C@@H](CC(C)C)C(=O)N[C@@H](CC(N)=O)C(=O)N[C@@H](CCSC)C(=O)N[C@@H](C)C(=O)N[C@@H](CCCNC(=N)N)C(=O)N[C@@H](CCCCN)C(=O)N[C@H](C(=O)N[C@@H](CC(C)C)C(=O)N[C@@H](CC(N)=O)C(=O)N[C@@H](CO)C(=O)N[C@@H](CC(C)C)C(=O)N[C@@H](CCC(=O)O)C(=O)N[C@@H](CC(=O)O)C(=O)N[C@@H](CCCCN)C(=O)N[C@@H](C)C(=O)N[C@@H](Cc1ccccc1)C(=O)N[C@@H](CCC(N)=O)C(=O)O)[C@@H](C)O)[C@@H](C)CC` [C-peptide], in the assay on hTOM70 mutant E549I, the “impact of mutation on binding” value is reported as “only had a moderate impact on binding” and the “thermodynamic nature of binding” value was “endothermic”. For the same compound, the “thermodynamic nature of binding” value at hTOM70 mutant H583Q is given as “endothermic”.
